# PubChem BioAssay AID1259414, Drosophila RNAi Screening Center, 2018
# Aim: 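Genome-wide screen for host control of endosymbiont load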 (primary screen)
# Cell system: Drosophila JW18 cells infected with Wolbachia
# Reagents: long dsRNA against Drosophila genes, 0.25 µg dsRNA per well of a 384-well plate
# Duration: 5 days
# Treatment: cells persistently infected with Wolbachia before knock-down; no added drug
# Read-out: 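Automated imaging of bacterial rRNA staining divided by host cell count, reported as plate-normalised robust z-score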
# Scale: Wolbachia per cell robust z: higher = more Wolbachia per host cell than the plate typical
# Hit rule: 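Active if absolute robust z reaches 1.5 in two or more of three replicates, leaving out multi- or no-target dsRNAs, genes unexpressed in JW18 and A1 wells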
# The screen tested about 24,000 reagents; below is a random part of those that have a named target and a result. Of all reagents, about 1,210 (5%) got an active call. 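Inactive calls also include excluded dsRNAs with several or no targets, genes unexpressed in JW18, and well A1, regardless of score.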 Entries without a mark were called inactive. Reagents against one gene are numbered here. Names joined by + are all predicted targets of the reagent.
gene knocked down,reagent no.,"Wolbachia per cell robust z, rep 1","Wolbachia per cell robust z, rep 2","Wolbachia per cell robust z, rep 3"
CG42681,1,-1.62,0.777,0.367
CG14383,1,-0.344,0.435,0.728
mbo,1,-0.287,-0.931,0.372
CG11679,1,-3.21,0.356,0.396
tinc,1,0.781,0.47,0.869
tinc,2,1.17,1.26,-0.881
tinc,3,-3.54,-5.34,-0.546
tinc,4,0.35,-0.233,-1.09
CG42813,1,0.0282,-0.106,-0.483
CG2577,1,0.901,0.00722,0.356
CG2577,2,-1.36,-0.137,0.165
CG2577,3,0.11,1.24,2.03
CG6142,1,-2.87,0.981,0.7
CG13175 + CG33964,1,1.35,1.05,0.905
Mkrn1,1,1.34,2.12,0.937
Mkrn1,2,-1.14,-0.807,-0.0892
CG14684,1,0.176,-0.00718,0.243
nau,1,-6.19 (active),-2.2,0.338
slou,1,-5,-0.0601,-6.65
slou,2,1.16,0.62,0.148
CG13871,1,-1.48,0.403,0.407
CG13871,2,-0.216,1.57,1.05
slv,1,0.325,0.651,-0.253
ssp7,1,-4.74,-0.442,-1.36
vanin-like,1,1.96,-6.77,0.36
CG13699,1,0.627,0.832,0.191
CG13699,2,0.647,0.731,0.97
CG12158,1,-2.05,-1.38,1.8

Limited to “Wolbachia per cell robust z, rep 2”, for 4 of the entries above:
ssp7	-0.442
vanin-like	-6.77
CG13699 #1	0.832
CG13699 #2	0.731
